# Values from PubChem BioAssay AID624099 (ICCB-Longwood, 2012).
# Aim: 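Human genes that papillomavirus E2 requires to repress the HPV18 LCR promoter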 (primary screen)
# Cells: human C33A cervical carcinoma cells (HPV-negative) stably expressing BPV1 E2 and an HPV18 LCR luciferase reporter
# Knock-down reagent: siRNA pool against human genes, 40 nM
# Time to read-out: 72 h
# Read-out: 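HPV18 LCR reporter light per well, converted to plate-wise z-scores that exclude control wells, and averaged over triplicate plates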
# Direction: mean z-score and z-score: higher = stronger reporter signal, weaker E2 silencing
# Call rule: 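Mean z ≥ 2 together with z ≥ 2 in two or more of the three replicates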
# The deposit covers about 21,000 reagents; shown is a part drawn at random. Of all reagents, 497 (2.4%) are marked active. 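Higher z means weaker E2 silencing; only reporter increases were scored, and knock-downs that hurt cell survival may mask genuine repressor factors.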
target,mean z-score,"z-score, replicate A","z-score, replicate B","z-score, replicate C",Outcome
FHL2 (four and a half LIM domains 2),-2.12,-2.14,-1.91,-2.31,inactive
IQSEC3 (IQ motif and Sec7 domain ArfGEF 3),-0.03,0.1,0.01,-0.19,inactive
IGDCC4 (immunoglobulin superfamily DCC subclass member 4),-0.08,-0.4,-0.07,0.25,inactive
LINC02880 (long independently transcribed non-coding RNA 2880),-1.28,-1.55,-0.92,-1.36,inactive
IL18RAP (interleukin 18 receptor accessory protein),0.27,0.25,0.23,0.34,inactive
OXLD1 (oxidoreductase like domain containing 1),0.64,0.94,0.47,0.51,inactive
HTR2B (5-hydroxytryptamine receptor 2B),0.18,0,0.14,0.4,inactive
PRAM1 (PML-RARA regulated adaptor molecule 1),0.67,0.78,0.37,0.85,inactive
"PKDCC (protein kinase domain containing, cytoplasmic)",-1.05,-0.83,-1.23,-1.11,inactive
SLCO4C1,-0.13,-0.23,-0.5,0.34,inactive
EMC3 (ER membrane protein complex subunit 3),-0.64,-0.89,-0.4,-0.63,inactive
REP15 (RAB15 effector protein),0.26,0.21,0.24,0.33,inactive
LOC389659 (retired record),0.74,0.77,0.61,0.83,inactive
ZRANB2 (zinc finger RANBP2-type containing 2),0.71,1.1,0.56,0.48,inactive
MYO1F (myosin IF),-0.41,-0.42,-0.52,-0.3,inactive
RPN2 (ribophorin II),-0.75,-0.79,-0.73,-0.72,inactive
B3GLCT (beta 3-glucosyltransferase),-0.14,-0.1,-0.33,0,inactive
TBC1D26 (TBC1 domain family member 26),0.5,0.36,0.32,0.83,inactive
LOC391859 (retired record),0.22,0,0.41,0.26,inactive
ZBTB2 (zinc finger and BTB domain containing 2),-1.22,-1.29,-0.9,-1.46,inactive
"SEC11A (SEC11 homolog A, signal peptidase complex subunit)",-0.85,-0.86,-1.11,-0.57,inactive
SAMD1 (sterile alpha motif domain containing 1),-0.25,0.1,-0.19,-0.68,inactive
EHMT2 (euchromatic histone lysine methyltransferase 2),0.7,0.73,0.45,0.91,inactive
